The record followed here is patent publication US6440980B1, “Synergistic inhibition of viral replication by long-chain hydrocarbons and nucleoside analogs” (Avanir Pharmaceuticals, priority 1996, dated 2002).

Structures are written as SMILES.

In this data set the test system is Vero cells. Description: Cell-associated n-[1-14C]docosanol. It counts as cell-based, African Green monkey. To be noted: 24 hours.

Regarding `CCCCCCCCCCCCCCCCCCCCCCO` [n-docosanol], the cell-associated n-docosanol bound (1:1 ratio of surfactant to n-docosanol) is on record as 3.1×10^−6 μg/cell and the cell-associated n-docosanol bound (4:1 ratio of surfactant to n-docosanol) was 7.8×10^−6 μg/cell.
